The values below come from article PMC9170159 (Proceedings of the National Academy of Sciences of the …, 2022).

Assay [1] has as its target S1 subunit of the SARS-CoV spike protein (SARS-CoV (2003), strain not named, UniProt P59594). Briefly: ELISA; monoclonal phage ELISA; […] absorbance at 450 nm. To be noted: one partner purified.
Assay [2] has as its target T1, SARS-CoV-2 (Wuhan-Hu-1) spike receptor-binding domain, His-tagged (SARS-CoV-2, UniProt P0DTC2 319-541). Briefly: BLI; Octet; […] monomeric VHH at 25 nM; […]. To be noted: both partners purified. In general terms: In BLI a coated tip is dipped into the sample, and binding shifts an interference pattern.
Assay [3] addresses T1, SARS-CoV-2 (Wuhan-Hu-1) spike …. In words: BLI; Octet; […] monomeric VHH at 50 nM; […]. To be noted: both partners purified.
Assay [4] shares this target. In words: BLI; Octet; […] monomeric VHH at 100 nM; […]. To be noted: both partners purified.
Assay [5] has the same target. Briefly: BLI; Octet; […] monomeric VHH at 12.5 nM; […]. To be noted: both partners purified.

B1: 1B5 VHH displayed on phage (VHH)
VHH: DVQLVESGGGSVQAGGSLRLSCTGSRYTYSTYCMGWFRQAPGKEEEAVAIINSGGGEPYYGDSVKGRFTISQDRAKNTVYLQMDGLQPDDTAIYYCVAADSHNSRCYLGRSYVNYWGQGTQVTVSS
Turning to B1, the binding result in assay [1] is recorded as “binds”.

B2: NCI-CoV-8A2 VHH (monomeric, six-histidine tag) (VHH)
VHH: AVQLVDSGGGSVQAGGSLRLSCAASGYTYSICTMGWYRQAPGEGLEWVSGINADGSNTHYTDSVKGRFTISRDNAKKTLYLQMNSLKPEDTAIYYCAAHGTYDKYAPCGGFAGTYTYWGQGTQVTVSS
In general, Kd refers to the constant that tells how readily two partners part at equilibrium. Read a low Kd as tighter binding. Take B2: the dissociation constant (Kd) was 0.805 nM in assay [2], 0.764 nM in assay [3], 0.241 nM in assay [4] and 1.3 nM in assay [5].
